Pooled drug test results. Numbers come from NIAID ChemDB, via PubChem.

All rows: whole-cell or culture tests; species: HIV-1; cells: MT-2; read-out: EC50

Blank or dashed fields: not listed here. Rows are shuffled and stem from different studies. ECn: concentration that inhibits the pathogen or its effect by n%.

structure	strain or isolate	mutations	read by	result
Nc1nc(NC2CC2)c2ncn([C@H]3C=C[C@@H](CO)C3)c2n1	Site-directed mutant	RT-K65R K103N	cytopathic effect / XTT	10.75 µM
CC(C)(C)OC(=O)N[C@@H](Cc1ccccc1)[C@H](O)CNC[C@@H](O)[C@H](Cc1ccc(OCC(=O)N2CCOCC2)cc1)NC(=O)OC(C)(C)C	RF	PR-G48V I54V A71T V82A		3.08 µM
Nc1ncnc2c1ncn2[C@@H]1O[C@H](CO)C[C@@H]1F	HXB2D		p24	5.3 µM
Nc1nc(NC2CC2)c2ncn([C@H]3C=C[C@@H](CO)C3)c2n1	LAI WT		cytopathic effect / MTT	2.5 µM
Nc1ncnc2c1ncn2CCOCP(=O)(O)O	M184V(RT-M184V)	RT-M184V	p24	1.1 µM
COC(=O)N[C@H](C(=O)N[C@@H](Cc1ccccc1)[C@@H](O)CN(Cc1ccc(-c2ccccn2)cc1)NC(=O)[C@@H](NC(=O)OC)C(C)(C)C)C(C)(C)C	IIIB	8374-P36 GS-8374-resistant	ATP	0.01 µM
Cc1cn([C@H]2C[C@H](N=[N+]=[N-])[C@@H](CO)O2)c(=O)[nH]c1=O	Site-directed mutant	RT-K65R M184V	cytopathic effect / XTT	0.056 µM
O=c1[nH]cnc2c1ncn2[C@H]1CC[C@@H](CO)O1	HXB2D		p24	1.4 µM
C[C@@H]1C[C@@H]([C@H](O)CC2CC(=O)NC(=O)C2)C(=O)[C@@H](C)C1	RF			0.1 µg/mL
Cc1cn([C@H]2C[C@H](N=[N+]=[N-])[C@@H](CO)O2)c(=O)[nH]c1=O	L214F(RT-L214F)	RT-L214F	p24	0.009 µM
CCc1c(Sc2ccccn2)n(COCc2ccccc2)c(=O)[nH]c1=O	IIIB		cytopathic effect	0.06 ± 0.02 µM
Cc1cn([C@H]2C=C[C@@H](CO)O2)c(=O)[nH]c1=O	RT Δ.67 T69G K103N	1 (Δ.67+T69G+K103N)	p24	0.219 µM
Nc1nc(N)c2ncn([C@H]3CO[C@@H](CO)O3)c2n1		RT-K65R		17.2 µM
CC[C@H](C)[C@H](NC(=O)Cc1ccccn1)C(=O)N[C@@H](Cc1ccccc1)[C@@H](O)[C@H](O)[C@H](Cc1ccccc1)NC(=O)[C@@H](NC(=O)Cc1ccccn1)[C@@H](C)CC	RF			0.09 µg/mL
Nc1nc2c(ncn2[C@H]2CO[C@@H](CO)O2)c(=O)[nH]1		RT-Q151M	cytopathic effect / MTT	21 µM
O=c1[nH]cnc2c1ncn2[C@H]1CC[C@@H](CO)O1	NL4-3	RT-I178L	p24	0.16 µM
O=C1N(Cc2cccc(O)c2)[C@H](Cc2ccccc2)[C@H](O)[C@@H](C(F)Cc2ccccc2)N1Cc1cccc(O)c1	RF		cytopathic effect / MTT	<2.1 µM
CCN(c1nc(F)ccc1NC(C)(C)C)C1CCN(C(=O)c2cc3cc(NC(=O)N4CCN(C)CC4)ccc3[nH]2)CC1	IIIB	L441P	p24 / ELISA	0.0261 µM
Cc1ccnc2c1NC(=O)c1cccnc1N2C1CC1	RT-T69G K103N	1(T69G+K103N)	p24	0.577 µM
CC1=C(CCC(=O)O)c2cc3nc(cc4[nH]c(cc5[nH]c(cc1n2)c(C)c5C(O)CO)c(C)c4C(O)CO)C(C)=C3CCC(=O)O	IIIB		p24	6.57 ± 0.28 µM
Cc1cn([C@H]2C=C[C@@H](CO)O2)c(=O)[nH]c1=O	Clinical isolate	M41L/D67N/K70R/M184V/L210W/T215Y/K219E	recombinant virus assay	0.912 µM
CC(C)=CCN1Cc2cccc3[nH]c(=S)n(c23)C[C@@H]1C	TIBO-RS		cytopathic effect	>10 µM
Nc1nc(NC2CC2)c2ncn([C@H]3C=C[C@@H](CO)C3)c2n1	Site-directed mutant	RT-K65R Y115F	cytopathic effect / XTT	>3.44 µM
CCOP(=O)(COc1ccc(C[C@H](NC(=O)O[C@H]2CO[C@H]3OCC[C@H]32)[C@H](O)CN(CC(C)C)S(=O)(=O)c2ccc(OC)cc2)cc1)OCC	IIIB	D437N	p24 / ELISA	0.008 µM
N#Cc1cccc(CN2C(=O)N(Cc3cccc(N)c3)[C@H](Cc3ccccc3)[C@H](O)[C@H]2CCc2ccccc2)c1	RF		cytopathic effect / MTT	<0.565 µM
CC(C)OC(=O)OCOP(=O)(CO[C@H](C)Cn1cnc2c(N)ncnc21)OCOC(=O)OC(C)C	M184V (3TC-resistant RT M184V)	RT-M184V	p24	0.025 µM
Cc1cn([C@H]2C[C@H](N=[N+]=[N-])[C@@H](CO)O2)c(=O)[nH]c1=O	Site-directed mutant	RT-K103N	cytopathic effect / XTT	0.85 µM
Nc1cccc(CN2C(=O)N(Cc3cccc(N)c3)[C@H](Cc3ccccc3)[C@H](O)[C@H]2CCc2ccccc2)c1	RF		cytopathic effect / MTT	<0.365 µM
CCc1c([Se]c2ccccc2)n(COCc2ccccc2)c(=O)[nH]c1=O	TIBO-RS		cytopathic effect	0.28 ± 0.12 µM
Cc1cn([C@H]2C=C[C@@H](CO)O2)c(=O)[nH]c1=O	HXB2		cytopathic effect / XTT	3.1 µM
NC(=O)c1cccc(CN2C(=O)N(Cc3cccc(N)c3)[C@H](Cc3ccccc3)[C@H](O)[C@H]2CCc2ccccc2)c1	RF		cytopathic effect / MTT	<0.024 µM
Nc1nc(=O)n([C@@H]2CS[C@H](CO)O2)cc1F	Clinical isolate	K65R/Y181C/G190S	recombinant virus assay	1.677 µM
CC1=C(CCC(=O)O)c2cc3nc(cc4[nH]c(cc5[nH]c(cc1n2)c(C)c5CCOC(=O)B([B]C1[B][B][B][B]1)C1[B][B][B][B]1)c(C)c4CCOC(=O)B([B]C1[B][B][B][B]1)C1[B][B][B][B]1)C(C)=C3CCC(=O)O	IIIB		cytopathic effect	0.36 ± 0.1 µM
Cn1c2ccccc2c2c1cc(C#N)c(=O)n2-c1ccc([N+](=O)[O-])cc1	HXB2	TAM2 (D67N K70R T215F K219Q)		262.3 µM

5 of the rows above, restated:

structure,strain or isolate,mutations,read by,result
CC1=C(CCC(=O)O)c2cc3nc(cc4[nH]c(cc5[nH]c(cc1n2)c(C)c5CCOC(=O)B([B]C1[B][B][B][B]1)C1[B][B][B][B]1)c(C)c4CCOC(=O)B([B]C1[B][B][B][B]1)C1[B][B][B][B]1)C(C)=C3CCC(=O)O,IIIB,,cytopathic effect,0.36 ± 0.1 µM
C[C@@H]1C[C@@H]([C@H](O)CC2CC(=O)NC(=O)C2)C(=O)[C@@H](C)C1,RF,,,0.1 µg/mL
O=C1N(Cc2cccc(O)c2)[C@H](Cc2ccccc2)[C@H](O)[C@@H](C(F)Cc2ccccc2)N1Cc1cccc(O)c1,RF,,cytopathic effect / MTT,<2.1 µM
O=c1[nH]cnc2c1ncn2[C@H]1CC[C@@H](CO)O1,NL4-3,RT-I178L,p24,0.16 µM
Nc1nc(NC2CC2)c2ncn([C@H]3C=C[C@@H](CO)C3)c2n1,Site-directed mutant,RT-K65R K103N,cytopathic effect / XTT,10.75 µM